Measurements from article PMC5754140, “Two classes of protective antibodies against Pseudorabies virus variant glycoprotein B: Implications for vaccine design” (PLoS Pathogens, 2017).
Residue numbers refer to the chain shown, from its start.

B1: 1H1_NL Fab (N103 in HCDR3 replaced with alanine) (Fab, V domains shown)
VH: QVKLQESGAELVKPGASAKAACEASGYTFTSYWIHWVKQRPGQGLDWIGEINTSSGRTNYNERFKNKATLTVDKTSSTAYIQLSSLTSEDSAVYYCAREGFGAQSLDYWGQGTSLTVSS
VL: DIILTQSPAIMSASLGERVTLTCTASSSVSSSYLHWYQQKPGSSPKLWIYSTYNLAGAVPPRFSGSGSGTSYSLTISSMEAEDAATYYCQQYHRSPWTFGGGTKLEIK
B2: 1H1_SL Fab (S105 in HCDR3 replaced with alanine) (Fab, V domains shown)
VH: B1 VH with A103N, S105A
VL: B1 VL
B3: 1H1 Fab (wild type) (Fab, V domains shown)
VH: B1 VH with A103N
VL: B1 VL

What was measured:
[1] = target: T1, PRV gB ectodomain, soluble (residues A59 to N752, strain HN1201) (Pseudorabies virus (Suid …)); assay: BLI
[2] = target: T1, PRV gB ectodomain, soluble (residues …); assay: negative stain EM 3D reconstruction

Binder | fold decrease of affinity against wild type 1H1 [1] | stoichiometry N [2]
B1 | ~1000 fold | 
B2 | ~1000 fold | 
B3 |  | 3 Fab per gB trimer
